Taken from: PubChem BioAssay AID624099 (ICCB-Longwood, 2012)
Here is one part, drawn at random, of about 21,000 reagents. 497 of them (2.4%) count as active. 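Higher z means weaker E2 silencing; only reporter increases were scored, and knock-downs that hurt cell survival may mask genuine repressor factors.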 Entries without a mark were called inactive.

Assay: 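Human genes that papillomavirus E2 requires to repress the HPV18 LCR promoter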 (primary screen)
Cell system: human C33A cervical carcinoma cells (HPV-negative) stably expressing BPV1 E2 and an HPV18 LCR luciferase reporter
Knock-down reagent: siRNA pool against human genes, 40 nM
Time to read-out: 72 h
Measurement: 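Per-well luciferase luminescence, z-scored on each plate against the plate mean and SD with control wells left out, then averaged across three replicate plates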
Scale: mean z-score and z-score: higher = stronger reporter signal, weaker E2 silencing
Hit rule: 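Hit if mean z-score reaches 2 and two or more of three replicate z-scores also reach 2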

Target gene	mean z-score	z-score, replicate A	z-score, replicate B	z-score, replicate C
SKIL	0.64	0.58	0.65	0.7
DUOX2	-1.15	-1.1	-1.28	-1.07
POLR1A	-1.98	-1.84	-2.22	-1.89
PPFIA1	-1.18	-1.2	-1.18	-1.15
CALML6	1.97	2.08	2.1	1.75
PPCS	-0.62	-0.77	-0.61	-0.49
GLDC	-0.22	0.06	-0.18	-0.54
TMEM217	0.06	0.47	0	-0.29
TH	-0.41	-0.31	-0.63	-0.28
ZDHHC8BP	2.2 (active)	2.62	2.42	1.56
PSMG4	-0.34	-0.49	-0.51	-0.03
WNT16	0.31	0.11	0.27	0.55
GLB1L2	-1.94	-2.18	-1.87	-1.79
AACSP1	-0.23	-0.02	-0.22	-0.44
EIF4E2	0.17	0.32	0.15	0.04
ZNF764	-1.51	-1.52	-1.23	-1.79
CCNB1IP1	-1.36	-1.29	-1.38	-1.4
STATH	0.23	0.31	0.05	0.35
FIG4	-0.24	-0.23	-0.41	-0.06
BTBD2	0.09	0.55	-0.09	-0.2
FBXL8	0.59	0.39	0.59	0.78
CSN2	-0.69	-0.57	-1.05	-0.45
LOC390192 (retired record)	-0.22	0.08	-0.44	-0.32
LOC400968 (retired record)	-2.03	-1.77	-1.87	-2.46
TNNC1	-0.37	-0.88	0.09	-0.32
ST6GALNAC3	-0.03	0.28	-0.37	0
CD6	0.15	0.4	-0.2	0.25
CCDC85A	1.8	2.12	1.8	1.49
LINC02907	0.66	1.06	0.66	0.26
SPTSSA	-0.35	-0.07	-0.66	-0.31
TBX18	-0.17	0.07	-0.24	-0.34
LOC389242 (retired record)	0.48	0.06	1.27	0.12
NLRP9	0.45	0.42	0.42	0.51
PPP2R5B	0.8	0.84	0.74	0.82
HBP1	-0.18	-0.45	-0.34	0.24
LOC389607 (retired record)	1.68	1.5	1.76	1.78
ELK4	0.71	0.86	0.43	0.85
TDO2	0.05	0.14	0.01	0.01
DPPA4	0.65	1.44	0.87	-0.34

Entries listed above called active, once more:
Target gene	mean z-score	z-score, replicate A	z-score, replicate B	z-score, replicate C
ZDHHC8BP	2.2 (active)	2.62	2.42	1.56
